A mixed list of measured activities; the numbers were collected in NIAID ChemDB.

Shared fields: cytotoxicity tests; cell line: MT-4; endpoint: CC50

Conditions beyond the fields shown may differ between rows. CCn is the concentration with n% toxicity to the cells.

{"structure": "Cc1cn([C@H]2C[C@H](N=[N+]=[N-])[C@@H](CO)O2)c(=O)[nH]c1=O", "value": "4.6 µM"}
{"structure": "Nc1ncnc2c1ncn2CCOCP(=O)(O)O", "value": "40 µM"}
{"structure": "COc1cc2occ(-c3ccc(O)cc3)c(=O)c2c(O)c1CC=C(C)C", "value": "28 µg/mL"}
{"structure": "O=c1cc(Cc2ccccc2)nc(OC2CCCC2)[nH]1", "value": "466 µM"}
{"structure": "O=c1ccn([C@H]2C[C@H](F)[C@@H](CO)O2)c(=O)[nH]1", "value": "2.4 µM"}
{"structure": "CCSC[C@H]1O[C@@H](n2cc(C)c(=O)[nH]c2=O)C[C@@H]1N=[N+]=[N-]", "value": "69.2 µg/mL"}
{"structure": "Nc1ncc2ncn(CCOCP(=O)(O)O)c2n1", "value": ">396 µg/mL"}
{"structure": "Nc1nc(Cl)nc2c1ncn2[C@@H]1O[C@H](CO)[C@H]1O", "value": "56 µg/mL"}
{"structure": "c1cc(CN2CCCNCCNCCCNCC2)ccc1CN1CCCNCCNCCCNCC1", "value": ">250 µM"}
{"structure": "CC(C)=CCc1cc(C(=O)/C=C/c2ccc(O)cc2)c(O)cc1O", "value": "2 µg/mL"}
{"structure": "CCCCCCCCCCCCCC(=O)O[C@@H]1[C@@H](C)[C@@]2(O)[C@@H](C=C(CO)C[C@]3(O)C(=O)C(C)=C[C@@H]23)[C@@H]2C(C)(C)[C@]12OC(C)=O", "value": ">31.3 µg/mL"}
{"structure": "O=c1cc(Cl)nc(Sc2ccccc2)[nH]1", "value": "186 µM"}
{"structure": "Nc1ncnc2c1ncn2CCOCP(=O)(O)O", "value": "21 µg/mL"}
{"structure": "Cc1cn([C@H]2C[C@H](N=[N+]=[N-])[C@@H](CO)O2)c(=O)[nH]c1=O", "value": "3.2 µg/mL"}
{"structure": "CCC(C)Oc1cc(=O)[nH]c(Sc2cc(C)cc(C)c2)n1", "value": "≥200 µM"}
{"structure": "Cc1cc(C#N)cc(C)c1Oc1nc(Nc2ccc(C#N)cc2)nc(N)c1Br", "value": ">100 µM"}
{"structure": "Nc1ccn([C@@H]2CC(CO)(CO)CO2)c(=O)n1", "value": ">100 µg/mL"}
{"structure": "Cc1cn([C@H]2C[C@H](F)[C@@H](CO)O2)c(=O)[nH]c1=O", "value": "89 µM"}
{"structure": "CC(C)=CCN1Cc2cc(Cl)cc3[nH]c(=S)n(c23)C[C@@H]1C", "value": "16 µg/mL"}
{"structure": "CCCCOc1cc(C)cc(S(=O)(=O)c2cccc(N)c2C#N)c1", "value": "11 µM"}
{"structure": "COc1nc(Cc2ccccc2)cc(=O)[nH]1", "value": ">1000 µM"}
{"structure": "Nc1ncnc2c1ncn2CCOCP(=O)(O)O", "value": "105 µM"}
{"structure": "OC[C@@H]1CC[C@H](n2cnc3c(Cl)ncnc32)O1", "value": "101.1 µM"}
{"structure": "CCC(C)Oc1nc(Sc2ccccc2)cc(=O)[nH]1", "value": "147 µM"}
{"structure": "Cc1cc(C)cc(S(=O)(=O)c2cccc(F)c2C#N)c1", "value": "200 µM"}
{"structure": "CCOC(=O)C1c2cccn2N(C)c2ccccc2N1C(=O)CCl", "value": "6 µM"}
{"structure": "Cc1cn([C@H]2C[C@H](N=[N+]=[N-])[C@@H](CO)O2)c(=O)[nH]c1=O", "value": "2.01 µg/mL"}
{"structure": "Cc1cn([C@H]2C[C@H](N=[N+]=[N-])[C@@H](CSCCC(=O)O)O2)c(=O)[nH]c1=O", "value": "125 µg/mL"}
{"structure": "CCCCCCCCCCCCCCCC(=O)Nc1cc(S(=O)(=O)O)cc2cc(S(=O)(=O)O)cc(O)c12", "value": "250 µM"}
{"structure": "c1cnc2c(c1)cc(CN1CCNCCNCCNCC1)c1cccnc12", "value": "17.6 µM"}
{"structure": "CCC(C)Oc1cc(=O)[nH]c(S(=O)(=O)c2ccccc2Cl)n1", "value": ">200 µM"}
{"structure": "CC1CCN(CCCN2c3ccccc3NC(c3ccccc3)c3cccn32)CC1", "value": "47 µM"}
{"structure": "C=CC(C)(C)c1c(O)cc(O)c2c(=O)c(O)c(-c3cc(O)c(O)c(CC=C(C)C)c3CC=C(C)C)oc12", "value": "20 µg/mL"}
{"structure": "Cc1cn([C@H]2C[C@H](N=[N+]=[N-])[C@@H](CO)O2)c(=O)[nH]c1=O", "value": ">10 µM"}
{"structure": "CC1CCN(CCCN2c3ccccc3NCc3cccn32)CC1", "value": "62 µM"}
{"structure": "O=S(=O)(O)OCC1OC2OC3C(COS(=O)(=O)O)OC(OC4C(COS(=O)(=O)O)OC(OC5C(COS(=O)(=O)O)OC(OC6C(COS(=O)(=O)O)OC(OC7C(COS(=O)(=O)O)OC(OC8C(COS(=O)(=O)O)OC(OC1C(OS(=O)(=O)O)C2OS(=O)(=O)O)C(OS(=O)(=O)O)C8OS(=O)(=O)O)C(OS(=O)(=O)O)C7OS(=O)(=O)O)C(OS(=O)(=O)O)C6OS(=O)(=O)O)C(OS(=O)(=O)O)C5OS(=O)(=O)O)C(OS(=O)(=O)O)C4OS(=O)(=O)O)C(OS(=O)(=O)O)C3OS(=O)(=O)O", "value": ">250 µg/mL"}
{"structure": "CC(C)[C@H](NC(=O)N(C)Cc1ccccn1)C(=O)N[C@@H](Cc1ccccc1)C(=O)C(F)(F)[C@H](Cc1ccccc1)NC(=O)[C@@H](NC(=O)N(C)Cc1ccccn1)C(C)C", "value": "56 µM"}
{"structure": "COc1ncnc2c1ncn2[C@H]1CC[C@@H](CO)O1", "value": "179.2 µM"}
{"structure": "COc1ccc(Oc2c(C(=O)O)oc3cc(O)cc(O)c3c2=O)c(OC)c1", "value": ">25 µg/mL"}
{"structure": "Fc1cccc(F)c1C1SCc2nc3ccccc3n21", "value": "49 µM"}
{"structure": "Cc1ccnc2c1NC(=O)c1cccnc1N2C1CC1", "value": ">80 µM"}
{"structure": "CC(C)=CCN1Cc2cccc3[nH]c(=S)n(c23)CC1C", "value": "25 µg/mL"}
{"structure": "CCC(C)Oc1cc(N)nc(Sc2cccc(C)c2)n1", "value": "121 µM"}
{"structure": "O=c1cc(Cc2ccccc2)[nH]c(=O)[nH]1", "value": ">1000 µM"}
{"structure": "O=S(=O)(O)c1cc(NS(=O)(=O)c2ccc(-c3ccc(S(=O)(=O)Nc4cc(S(=O)(=O)O)c5cccc(S(=O)(=O)O)c5c4)cc3)cc2)cc2c(S(=O)(=O)O)cccc12", "value": ">500 µM"}
{"structure": "c1cnc2c(c1)cc(CN1CCCNCCNCCCNCC1)c1cccnc12", "value": "15.3 µM"}
{"structure": "CCOCn1c(Cc2ccccc2)c(C(C)C)c(=O)[nH]c1=O", "value": "98 µM"}
{"structure": "Cc1cn([C@H]2C[C@H](N=[N+]=[N-])[C@@H](CO)O2)c(=O)[nH]c1=O", "value": ">10 µg/mL"}
{"structure": "CCCCCCCCCCCC(=O)O[C@@]12[C@H](OC(=O)C(C)CC)[C@@H](C)[C@@]3(O)[C@@H](C=C(CO)C[C@]4(O)C(=O)C(C)=C[C@@H]34)[C@@H]1C2(C)C", "value": ">62.5 µg/mL"}
{"structure": "Cc1cn([C@H]2C[C@H](N=[N+]=[N-])[C@@H](CO)O2)c(=O)[nH]c1=O", "value": ">1 µg/mL"}
{"structure": "Nc1nccc2c1ncn2[C@@H]1C[C@H](CO)[C@@H](O)[C@H]1O", "value": "7.1 µM"}
{"structure": "CCCCCCCC/C=C/C(=O)O[C@@H]1[C@@H](C)[C@@]2(O)[C@@H](C=C(COC(C)=O)C[C@@]3(O)C(=O)C(C)=C[C@@H]23)[C@@H]2C(C)(C)[C@]12OC(C)=O", "value": ">500 µg/mL"}
{"structure": "O=[N+]([O-])c1ccccc1S(=O)(=O)c1ccccc1", "value": ">200 µM"}
{"structure": "Nc1ncnc2c1ncn2[C@@H]1O[C@@H]2[C@H](O)CO[C@]2(CO)[C@H]1O", "value": ">100 µM"}
{"structure": "CCCCOc1nc(Cc2ccccc2)cc(=O)[nH]1", "value": "290 µM"}
{"structure": "CCC(=CCN1Cc2cc(Cl)cc3[nH]c(=S)n(c23)C[C@@H]1C)CC", "value": "5.2 µg/mL"}
{"structure": "Nc1cc(Cl)nc(Nc2cccc3ccccc23)n1", "value": "143 µM"}
{"structure": "CC(C)=CCN1Cc2cccc3[nH]c(=S)n(c23)C[C@@H]1C", "value": "325 µg/mL"}
{"structure": "O=C(Cc1ccc(Cl)cc1)OCC1Nc2ccccc2S(=O)(=O)n2cccc21", "value": "240 µM"}
{"structure": "C/C=C(\\C)C(=O)O[C@@]12[C@H](O)[C@@H](C)[C@@]3(O)[C@@H](C=C(COC(=O)CCCCCCC/C=C\\C/C=C\\CCCCC)C[C@]4(O)C(=O)C(C)=C[C@@H]34)[C@@H]1C2(C)C", "value": ">62.5 µg/mL"}
{"structure": "CC(C)Oc1nc(Cc2ccccc2)cc(=O)[nH]1", "value": "646 µM"}
{"structure": "O=C1C2c3cccn3S(=O)(=O)c3ccccc3N2C(=O)CN1Cc1ccccc1", "value": ">300 µM"}
{"structure": "C/C=C(/C)C(=O)O[C@@H]1[C@@H](C)[C@@]2(O)C(C=C(CO)C[C@]3(O)C(=O)C(C)=CC23)C2C(C)(C)[C@@]21OC(=O)C(C)CC", "value": ">62.5 µg/mL"}
{"structure": "CN(C)c1ncnc2c1ncn2[C@H]1CC[C@@H](CO)O1", "value": "132.4 µM"}
{"structure": "Nc1nc(I)nc2c1ncn2[C@@H]1O[C@H](CO)[C@H]1O", "value": "54 µg/mL"}
{"structure": "CCC(C)Oc1cc(N)nc(Sc2cccc(Cl)c2)n1", "value": "188 µM"}
{"structure": "CCOc1cc(C)cc(S(=O)(=O)c2cccc(N)c2C#N)c1", "value": "167 µM"}
{"structure": "CC(C)C[C@H](NC(=O)[C@@H](NC(=O)N(C)Cc1ccccn1)C(C)C)C(=O)C(F)(F)[C@H](CC(C)C)NC(=O)[C@@H](NC(=O)N(C)Cc1ccccn1)C(C)C", "value": "63 µM"}
{"structure": "CC(C)=CCN1Cc2cc(Cl)cc3[nH]c(=S)n(c23)C[C@@H]1C", "value": "20 µg/mL"}
{"structure": "CC(=O)O[C@@H]1[C@@H](C)[C@@]2(O)[C@@H](C=C(CO)C[C@]3(O)C(=O)C(C)=C[C@@H]23)[C@@H]2C(C)(C)[C@]12O", "value": ">500 µg/mL"}
{"structure": "O=c1cc(Cc2ccccc2)nc(OC2CCCCC2)[nH]1", "value": "157 µM"}
{"structure": "CC1=C[C@H]2[C@@]3(O)[C@H](C)[C@@H](OC(=O)Cc4ccccc4)[C@]4(OC(=O)Cc5ccccc5)[C@H]([C@@H]3C=C(COC(=O)Cc3ccccc3)C[C@]2(O)C1=O)C4(C)C", "value": ">31.3 µg/mL"}
{"structure": "CC(C)[C@H](NC(=O)OCc1ccccc1)C(=O)N[C@@H](Cc1ccccc1)C(=O)C(F)(F)[C@H](Cc1ccccc1)NC(=O)[C@@H](NC(=O)OCc1ccccc1)C(C)C", "value": ">100 µM"}
{"structure": "COc1cc(C)cc(S(=O)(=O)c2cccc(N)c2C#N)c1", "value": ">200 µM"}
{"structure": "c1ccc2c(c1)Cn1cccc1-c1nncn1-2", "value": ">300 µM"}
{"structure": "N#Cc1c(N)cccc1S(=O)(=O)c1cc(Cl)ccc1Cl", "value": "197 µM"}
{"structure": "CC(=O)OCC1=C[C@H]2[C@@H]3C(C)(C)[C@]3(OC(C)=O)[C@H](OC(C)=O)[C@@H](C)[C@]2(O)[C@@H]2C=C(C)C(=O)[C@@]2(O)C1", "value": ">125 µg/mL"}
{"structure": "Fc1ccc(Cl)c(C2OCc3nc4ccccc4n32)c1", "value": "32.6 µM"}
{"structure": "C[C@@H](Cn1cnc2c(N)nc(N)nc21)OCP(=O)(O)O", "value": ">300 µM"}